Construct, isoform or probe ends are uncertain for at least one entry. At least one verdict rests on a figure or table, not on a statement of the authors.
System: Sumo-nsp10
Assay: EMSA
Conditions: 2 mM Mg2+; recombinant protein; protein details: N-terminal SUMO; label: 3' FAM on top strand

TTTTTTTTTTCGAGCACCGCTGCGGCTG / GGTGCAGCCGCAGCGGTGCTCG [EMSA partially dsDNA]
binding result: binds
